Measured values from several laboratories, pooled; numbers as filed in NIAID ChemDB.

Shared fields: growth or infection tests

Zone: diameter of growth inhibition. a–b is a range or a potency band. ECn is the concentration giving n% inhibition of infection, replication or growth. Percent inhibition refers to the dose given; in toxicity tests it is the harm to the cells. Blank or dashed fields: not listed here. Conditions beyond the fields shown may differ between rows.

{"smiles": "Cc1ccc(N2NOC(=O)C2S(=O)(=O)Nc2nc(-c3ccc(Br)cc3)cs2)cc1", "strain or isolate": "MTCC323", "measure": "zone", "tested at": "250 µg/mL", "method": "agar diffusion", "agent": "Aspergillus clavatus", "result": "21 mm"}
{"smiles": "CS(=O)(=O)OCCn1c(Cn2nnc3ccccc32)nc2ccccc21", "strain or isolate": "LONG", "measure": "inhibition", "tested at": "4 µg/mL", "cell line": "HEP-2", "agent": "Respiratory syncytial virus", "result": "0%"}
{"smiles": "CCCN(CCC)c1c([N+](=O)[O-])cc(C(F)(F)F)cc1[N+](=O)[O-]", "strain or isolate": "RH", "measure": "EC50", "agent": "Toxoplasma gondii", "result": "0.5 µM"}
{"smiles": "O[C@]12C=C(c3nccc4c3[nH]c3ccccc34)[C@@H]3CCN(CCCC/C=C/CC1)C[C@@]31C[C@@H]3/C=C\\CCCCN3C12", "measure": "inhibition", "tested at": "0.1 µM", "cell line": "HFF", "agent": "Toxoplasma gondii", "result": "70%"}
{"smiles": "Cc1c(N2CCCN2C)c(F)cn2c(=O)c(C(=O)O)cc(C3CC3)c12", "strain or isolate": "EES61", "measure": "MIC", "agent": "Streptococcus pyogenes", "result": "0.78 µg/mL"}
{"smiles": "CO[C@@H]1[C@@H](O[C@@H]2O[C@H](C)[C@@H](O[C@H]3C[C@@](C)(O)[C@@H](O)[C@H](C)O3)[C@H](N(C)C)[C@H]2O)[C@@H](CC=O)C[C@@H](C)[C@@H](O[C@H]2CC[C@H](N(C)C)[C@H](C)O2)/C=C/C=C/C[C@@H](C)OC(=O)C[C@H]1O", "measure": "inhibition", "tested at": "3 µg/mL", "agent": "Toxoplasma gondii", "result": "70%"}
{"smiles": "c1ccc2c(c1)nnn2Cc1nc2ccccc2n1CC1CCCN2CCCCC12", "strain or isolate": "LONG", "measure": "inhibition", "tested at": "4 µg/mL", "cell line": "HEP-2", "agent": "Respiratory syncytial virus", "result": "100%"}
{"smiles": "Cc1cn(C[C@@H](CO)OCP(=O)(O)O)c(=O)[nH]c1=O", "strain or isolate": "DAVIS", "measure": "EC50", "cell line": "HEL", "method": "plaque count", "agent": "Cytomegalovirus", "result": "100 µg/mL"}
{"smiles": "CN(C)CCCn1c(Cn2nc3ccccc3n2)nc2ccccc21", "strain or isolate": "LONG", "measure": "inhibition", "tested at": "4 µg/mL", "cell line": "HEP-2", "agent": "Respiratory syncytial virus", "result": "89%"}
{"smiles": "Cc1ccc(N2NOC(=O)C2S(=O)(=O)Nc2nc(-c3ccc(F)cc3F)cs2)cc1", "strain or isolate": "MTCC323", "measure": "MIC", "method": "broth dilution", "agent": "Aspergillus clavatus", "result": "200 µg/mL"}
{"smiles": "CO[C@@H]1C[C@@H](C[C@H]2CC[C@H](C)[C@H]([C@@H](C)C(C)=O)O2)OC2(O[C@](C)([C@H]3CC[C@@](C)([C@@H]4O[C@@H]([C@H]5O[C@@](O)(CO)[C@@H](C)C[C@@H]5C)C[C@@H]4C)O3)C[C@H]2C)[C@@H]1C", "strain or isolate": "RH", "measure": "inhibition", "tested at": "0.05 µg/mL", "method": "uracil uptake / radiometric", "agent": "Toxoplasma gondii", "result": "100%"}
{"smiles": "COC[C@H](N)C1CCN(c2c(F)cn3c(=O)c(C(=O)O)cc(C4CC4)c3c2C)C1", "strain or isolate": "EES61", "measure": "MIC", "agent": "Streptococcus pyogenes", "result": "0.002 µg/mL"}
{"smiles": "Nc1nc(=O)c2ncn([C@@H]3C[C@H](O)[C@@H](CO)O3)c2c(=O)[nH]1", "measure": "EC50", "cell line": "HepG2.2.15", "method": "cytopathic effect", "agent": "West Nile virus", "result": "20–50 µM"}
{"smiles": "Nc1ncc2ncn(CCOCP(=O)(O)O)c2n1", "strain or isolate": "DAVIS", "measure": "EC50", "cell line": "HEL", "method": "cytopathic effect", "agent": "Cytomegalovirus", "result": "400 µg/mL"}
{"smiles": "Cc1ccc(N2NOC(=O)C2S(=O)(=O)Nc2nc(-c3c(F)cc(Cl)cc3Cl)cs2)cc1", "strain or isolate": "MTCC323", "measure": "zone", "tested at": "250 µg/mL", "method": "agar diffusion", "agent": "Aspergillus clavatus", "result": "17 mm"}
{"smiles": "O=C(O)P(=O)(O)O", "strain or isolate": "AD169", "measure": "EC50", "cell line": "HEL", "method": "cytopathic effect", "agent": "Cytomegalovirus", "result": "20 µg/mL"}
{"smiles": "C#CC[C@@H](C(=O)N[C@H](/C=C/C(=O)OCC)C[C@@H]1CCNC1=O)n1cccc(NC(=O)c2cc(C)on2)c1=O", "strain or isolate": "Serotype 39", "measure": "EC90", "cell line": "H1-HELA", "method": "cytopathic effect / XTT", "agent": "Rhinovirus", "result": "0.277 µM"}
{"smiles": "CC[C@H]1OC(=O)[C@H](C)[C@@H](O[C@H]2C[C@@](C)(OC)[C@@H](O)[C@H](C)O2)[C@H](C)[C@@H](O[C@@H]2O[C@H](C)C[C@H](N(C)C)[C@H]2O)[C@](C)(OC)C[C@@H](C)C(=O)[C@H](C)[C@@H](O)[C@]1(C)O", "strain or isolate": "V60", "measure": "MIC", "method": "broth dilution", "agent": "Mycobacterium massiliense", "result": "0.125 µg/mL"}
{"smiles": "CN(C)[C@@H]1C(=O)C(C(N)=O)=C(O)[C@@]2(O)C(=O)C3=C(O)c4c(O)c(NC(=O)CNC(F)(F)F)cc(F)c4C[C@H]3C[C@@H]12", "strain or isolate": "111-27853", "measure": "EC50", "method": "agar diffusion", "agent": "Pseudomonas aeruginosa", "result": ">32 µg/mL"}
{"smiles": "Cc1ccc(N2NOC(=O)C2S(=O)(=O)Nc2ccc(-n3c(-c4ccc([N+](=O)[O-])cc4)nc4ccccc4c3=O)cc2)cc1", "strain or isolate": "MTCC323", "measure": "MIC", "method": "broth dilution", "agent": "Aspergillus clavatus", "result": "500 µg/mL"}
{"smiles": "Nc1nc(=O)c2ncn(CCOCP(=O)(O)O)c2c(=O)[nH]1", "measure": "EC50", "cell line": "HepG2.2.15", "method": "cytopathic effect", "agent": "West Nile virus", "result": "300 µM"}
{"smiles": "CC(=O)OC[C@H]1O[C@@H](n2[nH]c(-c3ccccc3)[n+](/N=C/c3ccc(C)cc3)c2=S)[C@H](OC(C)=O)[C@@H](OC(C)=O)[C@@H]1OC(C)=O", "measure": "zone", "tested at": "1 mg/mL", "method": "agar diffusion / agar", "agent": "Aspergillus fumigatus", "result": "1–5 mm"}
{"smiles": "CN(C)c1cc(NC(=O)CNC(C)(C)C)c(O)c2c1C[C@H]1C[C@H]3[C@H](N(C)C)C(=O)C(C(N)=O)=C(O)[C@@]3(O)C(=O)C1=C2O", "measure": "MIC", "method": "broth dilution", "agent": "Mycobacterium massiliense", "result": "0.125–4 µg/mL"}
{"smiles": "CCC[C@H](N)C1CCN(c2c(F)cn3c(=O)c(C(=O)O)cc(C4CC4)c3c2C)C1", "strain or isolate": "EES61", "measure": "MIC", "agent": "Streptococcus pyogenes", "result": "0.002 µg/mL"}
{"smiles": "Cc1ccc(N2NOC(=O)C2S(=O)(=O)Nc2nc(-c3c(Cl)cccc3Cl)cs2)cc1", "strain or isolate": "MTCC323", "measure": "zone", "tested at": "250 µg/mL", "method": "agar diffusion", "agent": "Aspergillus clavatus", "result": "20 mm"}
{"smiles": "CO[C@@H]1[C@@H](OC(N)=O)[C@@H](O)[C@H](Oc2ccc3c(O)c(NC(=O)c4ccc(O)c(CC=C(C)C)c4)c(=O)oc3c2C)OC1(C)C", "measure": "EC50", "cell line": "Akata-Bx1", "method": "PCR", "agent": "Epstein-Barr virus", "result": "41.05 µM"}
{"smiles": "Cc1c(N2C[C@H]3OCC[C@@]3(CN)C2)c(F)cn2c(=O)c(C(=O)O)cc(C3CC3)c12", "strain or isolate": "EES61", "measure": "MIC", "agent": "Streptococcus pyogenes", "result": "0.1 µg/mL"}
{"smiles": "Nc1nc(=O)c2ncn(COCCO)c2c(=O)[nH]1", "measure": "EC50", "cell line": "HepG2.2.15", "method": "cytopathic effect", "agent": "West Nile virus", "result": ">500 µM"}
{"smiles": "CC(=O)OC[C@H]1O[C@@H](Sc2nnc(-c3cccnc3)n2/N=C/c2ccc(Cl)cc2)[C@H](OC(C)=O)[C@@H](OC(C)=O)[C@@H]1OC(C)=O", "measure": "zone", "tested at": "5 mg/mL", "method": "agar diffusion / agar", "agent": "Aspergillus fumigatus", "result": "1–5 mm"}
{"smiles": "Cc1c(N2Cc3cccnc3C2)c(F)cn2c(=O)c(C(=O)O)cc(C3CC3)c12", "strain or isolate": "EES61", "measure": "MIC", "agent": "Streptococcus pyogenes", "result": "0.05 µg/mL"}
{"smiles": "Nc1ccn([C@@H]2CS[C@H](CO)O2)c(=O)n1", "strain or isolate": "WILD TYPE", "measure": "EC50", "cell line": "HepG2", "agent": "Duck hepatitis B virus", "result": "0.033 µM"}
{"smiles": "Cc1c(N2CC[C@H](N)C2)c(F)cn2c(=O)c(C(=O)O)cc(C3CCC3)c12", "strain or isolate": "EES61", "measure": "MIC", "agent": "Streptococcus pyogenes", "result": "0.78 µg/mL"}
{"smiles": "Nc1nc2c(ncn2[C@H]2CO[C@@H](CO)O2)c(=O)[nH]1", "strain or isolate": "WILD TYPE", "measure": "EC50", "cell line": "LMH", "agent": "Duck hepatitis B virus", "result": "4.4 µM"}
{"smiles": "CC[C@H](NC)C1CCN(c2c(F)cn3c(=O)c(C(=O)O)cc(C4CC4)c3c2C)C1", "strain or isolate": "EES61", "measure": "MIC", "agent": "Streptococcus pyogenes", "result": "0.005 µg/mL"}
{"smiles": "O=c1[nH]cnc2c1ncn2C[C@@H](CO)OCP(=O)(O)O", "strain or isolate": "AD169", "measure": "EC50", "cell line": "HEL", "method": "plaque count", "agent": "Cytomegalovirus", "result": "100 µg/mL"}
{"smiles": "CN(C/C=C/C#CC(C)(C)C)Cc1cccc2ccccc12", "measure": "zone", "tested at": "1 mg/mL", "method": "agar diffusion / agar", "agent": "Aspergillus fumigatus", "result": "6–10 mm"}
{"smiles": "C[C@H]1C[C@H](N)CN1c1nc2c(cc1F)c(=O)c(C(=O)O)cn2-c1ccc(F)cc1F", "strain or isolate": "ATCC 8043", "measure": "MIC", "agent": "Enterococcus faecium", "result": "0.12 µg/mL"}
{"smiles": "CN[C@@H]1[C@H](O[C@H]2[C@H](O[C@H]3[C@H](O)[C@@H](O)[C@H](N=C(N)N)[C@@H](O)[C@@H]3N=C(N)N)O[C@@H](C)[C@]2(O)C=O)O[C@@H](CO)[C@H](O)[C@H]1O", "measure": "zone", "tested at": "250 µg/disc", "method": "agar diffusion", "agent": "Staphylococcus epidermidis", "result": "14 mm"}
{"smiles": "Nc1nc(=O)c2ncn(COCCOCc3ccccc3)c2c(=O)[nH]1", "measure": "EC50", "cell line": "HepG2.2.15", "method": "cytopathic effect", "agent": "West Nile virus", "result": "5–10 µM"}
{"smiles": "O=C1CCCN2C(CC1)C[C@@]13CN4CCCC/C=C/CC[C@@](O)(C=C(c5nccc6c5[nH]c5c(O)cccc56)[C@H]1CC4)[C@@H]23", "measure": "inhibition", "tested at": "10 µM", "cell line": "HFF", "agent": "Toxoplasma gondii", "result": "37%"}
{"smiles": "O=c1[nH]cnc2c1ncn2CCOCP(=O)(O)O", "strain or isolate": "AD169", "measure": "EC50", "cell line": "HEL", "method": "plaque count", "agent": "Cytomegalovirus", "result": "200 µg/mL"}
{"smiles": "CN1CCC[C@@]1(N)Cn1c(Cn2nnc3ccccc32)nc2ccccc21", "strain or isolate": "LONG", "measure": "inhibition", "tested at": "4 µg/mL", "cell line": "HEP-2", "agent": "Respiratory syncytial virus", "result": "53%"}
{"smiles": "Cc1cn([C@H]2C[C@H](N=[N+]=[N-])[C@@H](CO)O2)c(=O)[nH]c1=O", "strain or isolate": "LAV-2", "measure": "inhibition", "tested at": "100 µM", "cell line": "U-937", "method": "virus yield", "agent": "HIV-2", "result": "99.9%"}
{"smiles": "Cc1ccc(N2NOC(=O)C2S(=O)(=O)Nc2nc3cc(F)ccc3s2)cc1", "strain or isolate": "MTCC323", "measure": "zone", "tested at": "250 µg/mL", "method": "agar diffusion", "agent": "Aspergillus clavatus", "result": "23 mm"}
{"smiles": "CCCCCCCCCCCCNc1nc(=O)c2ncn([C@@H]3C[C@H](O)[C@@H](CO)O3)c2c(=O)[nH]1", "measure": "EC50", "cell line": "HepG2.2.15", "method": "cytopathic effect", "agent": "West Nile virus", "result": "3–10 µM"}
{"smiles": "Nc1nc2c(ncn2CCOCP(=O)(O)O)c(=O)[nH]1", "strain or isolate": "AD169", "measure": "EC50", "cell line": "HEL", "method": "cytopathic effect", "agent": "Cytomegalovirus", "result": "0.7 µg/mL"}
{"smiles": "CN(C)CCCn1c(Cn2nnc3ccccc32)nc2ccccc21", "strain or isolate": "LONG", "measure": "inhibition", "tested at": "4 µg/mL", "cell line": "HEP-2", "agent": "Respiratory syncytial virus", "result": "100%"}

A second listing of 4 rows from above:

smiles | strain or isolate | measure | tested at | cell line | method | agent | result
Cc1ccc(N2NOC(=O)C2S(=O)(=O)Nc2nc(-c3c(F)cc(Cl)cc3Cl)cs2)cc1 | MTCC323 | zone | 250 µg/mL |  | agar diffusion | Aspergillus clavatus | 17 mm
CO[C@@H]1[C@@H](OC(N)=O)[C@@H](O)[C@H](Oc2ccc3c(O)c(NC(=O)c4ccc(O)c(CC=C(C)C)c4)c(=O)oc3c2C)OC1(C)C |  | EC50 |  | Akata-Bx1 | PCR | Epstein-Barr virus | 41.05 µM
Cc1ccc(N2NOC(=O)C2S(=O)(=O)Nc2ccc(-n3c(-c4ccc([N+](=O)[O-])cc4)nc4ccccc4c3=O)cc2)cc1 | MTCC323 | MIC |  |  | broth dilution | Aspergillus clavatus | 500 µg/mL
C[C@H]1C[C@H](N)CN1c1nc2c(cc1F)c(=O)c(C(=O)O)cn2-c1ccc(F)cc1F | ATCC 8043 | MIC |  |  |  | Enterococcus faecium | 0.12 µg/mL